Test results reported in patent US20230143604A1 (TAKEDA PHARMACEUTICAL COMPANY LIMITED, priority 2020, published 2023).
Starred links: 1 amine or outer side, 2 acyl side, 3 side chain; linkers in the order of their positions; H or OH if unused. Non-standard residues stand in square brackets, D forms with d. Groups on a side chain read outwards from the residue. *: point of attachment. C18 diacid = O=C(O)CCCCCCCCCCCCCCCCC(=O)*; γGlu = O=C(O)[C@H](CCC(=O)[*:2])N[*:1]; NMeY = CN[C@@H](Cc1ccc(O)cc1)C(=O)O; AEEA = NCCOCCOCC(=O)O; Aib = CC(C)(N)C(=O)O

Test: general procedure: Fmoc solid-phase peptide synthesis; Rink Amine MBHA resin; 2-CTC Resin; HBTU/DIEA
Conditions: whole synthesis, HOAC
Work on “H-[NMeY][Aib]EGTFISDYSI[Aib]LDR[Aib]AQ[Aib]K([AEEA-AEEA-γGlu-γGlu-C18 diacid])FVNWLLAQRG-OH (SMILES CC[C@H](C)[C@H](NC(=O)[C@H](Cc1ccccc1)NC(=O)[C@@H](NC(=O)CNC(=O)[C@H](CCC(=O)O)NC(=O)C(C)(C)NC(=O)[C@H](Cc1ccc(O)cc1)NC)[C@@H](C)O)C(=O)N[C@@H](CO)C(=O)N[C@@H](CC(=O)O)C(=O)N[C@@H](Cc1ccc(O)cc1)C(=O)N[C@@H](CO)C(=O)N[C@H](C(=O)NC(C)(C)C(=O)N[C@@H](CC(C)C)C(=O)N[C@@H](CC(=O)O)C(=O)N[C@@H](CCCNC(=N)N)C(=O)NC(C)(C)C(=O)N[C@@H](C)C(=O)N[C@@H](CCC(N)=O)C(=O)NC(C)(C)C(=O)N[C@@H](CCCCNC(=O)COCCOCCNC(=O)COCCOCCNC(=O)CC[C@H](NC(=O)CC[C@H](NC(=O)CCCCCCCCCCCCCCCCC(=O)O)C(=O)O)C(=O)O)C(=O)N[C@@H](Cc1ccccc1)C(=O)N[C@H](C(=O)N[C@@H](CC(N)=O)C(=O)N[C@@H](Cc1c[nH]c2ccccc12)C(=O)N[C@@H](CC(C)C)C(=O)N[C@@H](CC(C)C)C(=O)N[C@@H](C)C(=O)N[C@@H](CCC(N)=O)C(=O)N[C@@H](CCCNC(=N)N)C(=O)NCC(=O)O)C(C)C)[C@@H](C)CC)” yielded an isolated yield of 9.87% yield.

Same assay, conditions: whole synthesis, HPLC, HOAC
With “H-[NMeY][Aib]EGTFISDYSIALDR[Aib]AQ[Aib]K([AEEA-AEEA-γGlu-γGlu-C18 diacid])FVNWLLAQKG-OH” the “final HPLC purity” value was 96.8% purity.
In the case of “H-[NMeY][Aib]EGTFISDYSIALDR[Aib]K([AEEA-AEEA-γGlu-γGlu-C18 diacid])Q[Aib]NFVNWLLAQSPSSGAPPPS-NH2 (SMILES CC[C@H](C)[C@H](NC(=O)[C@H](CO)NC(=O)[C@H](Cc1ccc(O)cc1)NC(=O)[C@H](CC(=O)O)NC(=O)[C@H](CO)NC(=O)[C@@H](NC(=O)[C@H](Cc1ccccc1)NC(=O)[C@@H](NC(=O)CNC(=O)[C@H](CCC(=O)O)NC(=O)C(C)(C)NC(=O)[C@H](Cc1ccc(O)cc1)NC)[C@@H](C)O)[C@@H](C)CC)C(=O)N[C@@H](C)C(=O)N[C@@H](CC(C)C)C(=O)N[C@@H](CC(=O)O)C(=O)N[C@@H](CCCNC(=N)N)C(=O)NC(C)(C)C(=O)N[C@@H](CCCCNC(=O)COCCOCCNC(=O)COCCOCCNC(=O)CC[C@H](NC(=O)CC[C@H](NC(=O)CCCCCCCCCCCCCCCCC(=O)O)C(=O)O)C(=O)O)C(=O)N[C@@H](CCC(N)=O)C(=O)NC(C)(C)C(=O)N[C@@H](CC(N)=O)C(=O)N[C@@H](Cc1ccccc1)C(=O)N[C@H](C(=O)N[C@@H](CC(N)=O)C(=O)N[C@@H](Cc1c[nH]c2ccccc12)C(=O)N[C@@H](CC(C)C)C(=O)N[C@@H](CC(C)C)C(=O)N[C@@H](C)C(=O)N[C@@H](CCC(N)=O)C(=O)N[C@@H](CO)C(=O)N1CCC[C@H]1C(=O)N[C@@H](CO)C(=O)N[C@@H](CO)C(=O)NCC(=O)N[C@@H](C)C(=O)N1CCC[C@H]1C(=O)N1CCC[C@H]1C(=O)N1CCC[C@H]1C(=O)N[C@@H](CO)C(N)=O)C(C)C)”, the “final HPLC purity” value is reported as 95.73% purity.
In the case of “H-[NMeY][Aib]EGTFISDYSI[Aib]LDR[Aib]AQ[Aib]K([AEEA-AEEA-γGlu-γGlu-C18 diacid])FVNWLLAQRG-OH (SMILES CC[C@H](C)[C@H](NC(=O)[C@H](Cc1ccccc1)NC(=O)[C@@H](NC(=O)CNC(=O)[C@H](CCC(=O)O)NC(=O)C(C)(C)NC(=O)[C@H](Cc1ccc(O)cc1)NC)[C@@H](C)O)C(=O)N[C@@H](CO)C(=O)N[C@@H](CC(=O)O)C(=O)N[C@@H](Cc1ccc(O)cc1)C(=O)N[C@@H](CO)C(=O)N[C@H](C(=O)NC(C)(C)C(=O)N[C@@H](CC(C)C)C(=O)N[C@@H](CC(=O)O)C(=O)N[C@@H](CCCNC(=N)N)C(=O)NC(C)(C)C(=O)N[C@@H](C)C(=O)N[C@@H](CCC(N)=O)C(=O)NC(C)(C)C(=O)N[C@@H](CCCCNC(=O)COCCOCCNC(=O)COCCOCCNC(=O)CC[C@H](NC(=O)CC[C@H](NC(=O)CCCCCCCCCCCCCCCCC(=O)O)C(=O)O)C(=O)O)C(=O)N[C@@H](Cc1ccccc1)C(=O)N[C@H](C(=O)N[C@@H](CC(N)=O)C(=O)N[C@@H](Cc1c[nH]c2ccccc12)C(=O)N[C@@H](CC(C)C)C(=O)N[C@@H](CC(C)C)C(=O)N[C@@H](C)C(=O)N[C@@H](CCC(N)=O)C(=O)N[C@@H](CCCNC(=N)N)C(=O)NCC(=O)O)C(C)C)[C@@H](C)CC)”, the “final HPLC purity” value is reported as 96.79% purity.
In the case of “H-[NMeY][Aib]EGTFISDYSI[Aib]LDR[Aib]AQ[Aib]NFVNWLLAQK([AEEA-AEEA-γGlu-γGlu-C18 diacid])PSSGAPPPS-NH2 (SMILES CC[C@H](C)[C@H](NC(=O)[C@H](Cc1ccccc1)NC(=O)[C@@H](NC(=O)CNC(=O)[C@H](CCC(=O)O)NC(=O)C(C)(C)NC(=O)[C@H](Cc1ccc(O)cc1)NC)[C@@H](C)O)C(=O)N[C@@H](CO)C(=O)N[C@@H](CC(=O)O)C(=O)N[C@@H](Cc1ccc(O)cc1)C(=O)N[C@@H](CO)C(=O)N[C@H](C(=O)NC(C)(C)C(=O)N[C@@H](CC(C)C)C(=O)N[C@@H](CC(=O)O)C(=O)N[C@@H](CCCNC(=N)N)C(=O)NC(C)(C)C(=O)N[C@@H](C)C(=O)N[C@@H](CCC(N)=O)C(=O)NC(C)(C)C(=O)N[C@@H](CC(N)=O)C(=O)N[C@@H](Cc1ccccc1)C(=O)N[C@H](C(=O)N[C@@H](CC(N)=O)C(=O)N[C@@H](Cc1c[nH]c2ccccc12)C(=O)N[C@@H](CC(C)C)C(=O)N[C@@H](CC(C)C)C(=O)N[C@@H](C)C(=O)N[C@@H](CCC(N)=O)C(=O)N[C@@H](CCCCNC(=O)COCCOCCNC(=O)COCCOCCNC(=O)CC[C@H](NC(=O)CC[C@H](NC(=O)CCCCCCCCCCCCCCCCC(=O)O)C(=O)O)C(=O)O)C(=O)N1CCC[C@H]1C(=O)N[C@@H](CO)C(=O)N[C@@H](CO)C(=O)NCC(=O)N[C@@H](C)C(=O)N1CCC[C@H]1C(=O)N1CCC[C@H]1C(=O)N1CCC[C@H]1C(=O)N[C@@H](CO)C(N)=O)C(C)C)[C@@H](C)CC)”, the “final HPLC purity” value is reported as 97.25% purity.
For “Me-Y-Aib-E-G-T-F-I-S-D-Y-S-I-A-L-D-R-Km-A-Q-Aib-D-F-V-N W-L-L-A-Q-S-P-S-S-G-A-P-P-P-S-NH2”, the “final HPLC purity” value was 98.60% purity.
